A mixed list of measured activities; the numbers were collected in NIAID ChemDB.

Shared fields: growth or infection tests; agent: Respiratory syncytial virus; cell line: HeLa; read-out: EC50

ECn is the concentration giving n% inhibition of infection, replication or growth. Conditions beyond the fields shown may differ between rows. Blank or dashed fields: not listed here.

| compound | strain | read by | result |
|---|---|---|---|
| CCOC(=O)COCCN1CCC(Nc2nc3c(C)cccc3n2Cc2nc(C)ccc2O)CC1 |  | cytopathic effect | 1.585 µM |
| N#CC1=CSc2nnc(-c3cn(-c4ccccc4)nc3-c3ccccc3)n2N=C1N |  | cytopathic effect | >16 µg/mL |
| Cc1cc(C)c2nc(NC3CCCCC3)n(Cc3nc(C)ccc3O)c2c1 |  | cytopathic effect | 100 µM |
| CC(C)CS[C@@H]1C[C@H](n2cnc3c(N)ncnc32)[C@@H](O)[C@H]1O |  | cytopathic effect | >80 µg/mL |
| CCOC(=O)/C=C\C=C\[C@H]1O[C@@H](n2ccc(=O)[nH]c2=O)[C@H](O)[C@@H]1O |  |  | ≥200 µM |
| Cc1cc(C)c2c(c1)nc(Nc1ccc(CCN)cc1)n2Cc1nc(C)ccc1O |  | cytopathic effect | 6.31 µM |
| Cc1ccc(O)c(Cn2c(NC3CCNCC3)nc3c(C)cccc32)n1 |  | cytopathic effect | 0.002 µM |
| CCOC(=O)CCCNc1nc2ccccc2n1Cc1nc(C)ccc1O |  | cytopathic effect | 100 µM |
| Cc1ccc(O)c(Cn2c(NC3CCN(CC(O)Cc4ccccc4)CC3)nc3c(C)cccc32)n1 |  | cytopathic effect | 0.398 µM |
| O=c1[nH]n2c(-c3cn(-c4ccccc4)nc3-c3ccccc3)nnc2sc1=O |  | cytopathic effect | >80 µg/mL |
| CC1(C)[C@@H](CO)CC[C@@]1(C)Cn1nnc2c(=O)[nH]cnc21 |  | cytopathic effect | >400 µg/mL |
| S=c1[nH]n2c(-c3cn(-c4ccccc4)nc3-c3ccccc3)nnc2s1 |  | cytopathic effect | >80 µg/mL |
| COC(=O)[C@]1(C)CCC[C@]2(C)c3cc(Br)c4nc(C(F)(F)F)[nH]c4c3CCC12 |  | plaque count | >4 µg/mL |
| O=C(NC1CC1)c1cc2c(s1)-c1ccccc1N(C(=O)c1ccc(NC(=O)c3ccccc3-c3ccccc3)cc1)CC2 | LONG WILD TYPE | plaque count | 0.2 µM |
| Cc1cc(C)c2nc(NCCc3ccc(S(N)(=O)=O)cc3)n(Cc3nc(C)ccc3O)c2c1 |  | cytopathic effect | 63.1 µM |
| CC=NC(=N)c1nc(-c2ccc(OC)cc2)n(Cc2ccccc2)n1 | LONG | cytopathic effect | >100 µg/mL |
| Cc1ccc(O)c(Cn2c(NCCCO)nc3ccccc32)n1 |  | cytopathic effect | 10 µM |
| COC(=O)c1ccc2c(c1)CSSC2 | LONG | cytopathic effect | 31.8 µM |
| CC=NC(=N)c1nc(-c2cccc(OC)c2)n(COCCO)n1 | LONG | cytopathic effect | ≥40 µg/mL |
| COC(=O)[C@]1(C)CCC[C@]2(C)c3cc4cc[nH]c4cc3CCC12 |  | plaque count | >4 µg/mL |
| Cc1ccc(O)c(Cn2c(NC3CCN(CC(N)=O)CC3)nc3c(C)cccc32)n1 |  | cytopathic effect | 0.398 µM |
| c1ccc(-c2nn3c(-c4cn(-c5ccccc5)nc4-c4ccccc4)nnc3s2)cc1 |  | cytopathic effect | >3.2 µg/mL |
| COC(=O)[C@]1(C)CCC[C@]2(C)c3ccc4nc(-c5ccccc5)c(-c5ccccc5)nc4c3CCC12 |  | plaque count | >4 µg/mL |
| CSCCCNc1nc2ccccc2n1Cc1nc(C)ccc1O |  | cytopathic effect | 15.8 µM |
| c1ccc2c(c1)CSSC2 | Clinical isolate SM61-48 (B) | cytopathic effect | 5.6 µM |
| CC1(C)[C@@H](CO)CC[C@@]1(C)Cn1cc(Br)c(=O)[nH]c1=O |  | cytopathic effect | >400 µg/mL |
| Cc1ccc(O)c(Cn2c(NCCCCCCO)nc3ccccc32)n1 |  | cytopathic effect | 10 µM |
| CC1(C)[C@@H](CO)CC[C@@]1(C)Cn1nnc2c(N)ncnc21 |  | cytopathic effect | >400 µg/mL |
| COC(=O)[C@]1(C)CCC[C@]2(C)c3ccc4nc5c(nc4c3CCC12)CCCC5 |  | plaque count | >4 µg/mL |
| Cc1ccc(O)c(Cn2c(NC3CCN(CCCS(N)(=O)=O)CC3)nc3c(C)cccc32)n1 |  | cytopathic effect | 0.013 µM |
| CC=NC(=N)c1nc(-c2cccc(OC)c2)n(C/C=C/c2ccccc2)n1 | LONG | cytopathic effect | 20 µg/mL |
| c1ccc(Oc2ccc3c(c2)CSSC3)cc1 | LONG | cytopathic effect | >36 µM |
| CC1=Nn2c(nnc2-c2cn(-c3ccccc3)nc2-c2ccccc2)SC1 |  | cytopathic effect | >3.2 µg/mL |
| Cc1ccc(O)c(Cn2c(NCCc3ccc(F)cc3)nc3ccccc32)n1 |  | cytopathic effect | 100 µM |
| CC=NC(=N)c1nc(-c2ccc(C)cc2)n(COCCO)n1 | LONG | cytopathic effect | >100 µg/mL |
| Cc1ccc(O)c(Cn2c(NC3CCN(CCCCC(N)=O)CC3)nc3c(C)cccc32)n1 |  | cytopathic effect | 0.079 µM |

A second listing of 5 rows from above:

compound | strain | read by | result
CC=NC(=N)c1nc(-c2cccc(OC)c2)n(C/C=C/c2ccccc2)n1 | LONG | cytopathic effect | 20 µg/mL
COC(=O)[C@]1(C)CCC[C@]2(C)c3cc(Br)c4nc(C(F)(F)F)[nH]c4c3CCC12 |  | plaque count | >4 µg/mL
Cc1ccc(O)c(Cn2c(NC3CCN(CCCCC(N)=O)CC3)nc3c(C)cccc32)n1 |  | cytopathic effect | 0.079 µM
Cc1ccc(O)c(Cn2c(NC3CCNCC3)nc3c(C)cccc32)n1 |  | cytopathic effect | 0.002 µM
CC=NC(=N)c1nc(-c2ccc(OC)cc2)n(Cc2ccccc2)n1 | LONG | cytopathic effect | >100 µg/mL